Record: PubChem BioAssay AID504761 (Drosophila RNAi Screening Center, 2011)
The screen tested about 22,000 reagents; this is an unselected part of those with a known target gene and a result. In the full data, 116 (0.52%) got an active call. 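Calls depend on retest data that are not deposited; infection was ranked per plate without normalising between plates; the unit of the infection score is not given.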 Raw values vary from plate to plate and are shown uncorrected. The numbers tell different reagents against one gene apart. A plus sign joins genes that one reagent is predicted to hit. The record does not give: the amount of reagent, the time to read-out.

Test: 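Insect host genes that dengue virus relies on to spread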 (primary screen)
Cell system: D.Mel-2 cells from Drosophila
Reagent: long dsRNA against Drosophila genes
Treatment: infection with dengue virus type 2; dose and infection time not stated
Read-out: 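Per well on two replicate plates, imaging gave the percent of cells positive for viral envelope protein, ranked by infection, and a nuclear count of cells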
Reading the numbers: infection score: higher = more virus-infected cells; cell count: higher = more cells in the well
Call rule: 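Low infection ranks in the two replicates (chance level up to 0.065) followed by a retest with a 1.5-fold or larger significant decrease, p below 0.05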
Calls: active = confirmed: knock-down lowers infection; inactive = not picked or not confirmed

gene knocked down | reagent | infection score, replicate 1 | infection score, replicate 2 | cell count, replicate 1 | cell count, replicate 2 | outcome
Bap60 | 1 | 3.58 | 5.68 | 4918 | 4365 | inactive
eIF3d1 | 1 | 1.78 | 4.62 | 2475 | 865 | inactive
Phb1 | 1 | 20.2 | 29.9 | 4754 | 4299 | inactive
Phb1 | 2 | 4.35 | 3.97 | 5696 | 5723 | inactive
CG1688 | 1 | 3.9 | 1.5 | 6046 | 6916 | inactive
CG42372 + CG30100 | 1 | 0.68 | 0.67 | 6310 | 3896 | inactive
CG15445 | 1 | 9.87 | 6.48 | 6729 | 6647 | inactive
mRpS29 | 1 | 9.15 | 20.5 | 5696 | 5518 | inactive
mRpS29 | 2 | 14.8 | 26.7 | 6332 | 2727 | inactive
Sec23 | 1 | 3.06 | 3.53 | 2877 | 4310 | inactive
CG17475 | 1 | 1.43 | 8.48 | 6517 | 6795 | inactive
CG17475 | 2 | 22.6 | 34.6 | 5274 | 4769 | inactive
Ctl2 | 1 | 1.22 | 5.37 | 6153 | 7035 | inactive
Ctl2 | 2 | 16.2 | 10.3 | 6203 | 6054 | inactive
CG3323 | 1 | 2.55 | 3.57 | 6430 | 6504 | inactive
CG32625 | 1 | 0.8 | 1.96 | 5908 | 6575 | inactive
CG32625 | 2 | 5.42 | 26.2 | 6938 | 5971 | inactive
CG30076 | 1 | 1.36 | 1.04 | 6375 | 6413 | inactive
CG30076 | 2 | 7.52 | 22 | 412 | 4929 | inactive
Syp | 1 | 2.28 | 1.93 | 6187 | 6326 | inactive
Syp | 2 | 10.1 | 11.2 | 6541 | 6989 | inactive
Syp | 3 | – | 5.03 | 390 | 457 | inactive
YL-1 | 1 | 2.03 | 2.65 | 6264 | 6576 | inactive
YL-1 | 2 | 2.88 | 4.43 | 5517 | 5011 | inactive
CG14086 | 1 | 6.51 | 5.92 | 6114 | 6423 | inactive
Tig | 1 | 3.92 | 5.68 | 6231 | 6606 | inactive
Tig | 2 | 9.1 | 9.14 | 2636 | 1160 | inactive
Rim2 | 1 | 3.15 | 2.34 | 6356 | 6025 | inactive
Rim2 | 2 | 3.74 | 19.1 | 6824 | 6217 | inactive
Zmynd10 | 1 | 0.69 | 2.29 | 5798 | 6329 | inactive
Zmynd10 | 2 | 20.5 | 11.3 | 6239 | 6212 | inactive
CG6628 | 1 | 2.44 | 5.29 | 5661 | 6121 | inactive
CG8202 | 1 | 3.05 | 8.56 | 6328 | 6638 | inactive
ais | 1 | 11.1 | 15.2 | 5387 | 5600 | inactive
ais | 2 | 4.75 | 2.18 | 6615 | 5830 | inactive
Gmppa | 1 | 7.93 | 9.57 | 6409 | 6580 | inactive
Gmppa | 2 | 17.9 | 24.8 | 5963 | 5567 | inactive
CG15365 | 1 | 1.93 | 2.41 | 6386 | 6875 | inactive
CG8188 | 1 | 2.41 | 4.7 | 6254 | 6844 | inactive
CG8188 | 2 | 15.1 | 7.98 | 5989 | 6833 | inactive
CG3345 | 1 | 5.04 | 3.36 | 5911 | 6719 | inactive
IA-2 | 1 | 4.94 | 2.79 | 6113 | 6770 | inactive
IA-2 | 2 | 3.68 | 3.28 | 5958 | 6583 | inactive
IA-2 | 3 | 7.82 | 11.7 | 6812 | 6716 | inactive
IA-2 | 4 | 1.66 | 2.21 | 6191 | 5781 | inactive
Ada | 1 | 2.69 | 8.41 | 6584 | 6684 | inactive
grsm | 1 | 2.18 | 7.61 | 6097 | 6561 | inactive
grsm | 2 | 1.25 | 7.88 | 6642 | 6976 | inactive
CG14974 | 1 | 3.01 | 5.3 | 6347 | 6320 | inactive
CG3092 | 1 | 5.2 | 29.7 | 6498 | 5118 | inactive
CG3092 | 2 | 3.28 | 2.5 | 6100 | 5687 | inactive
CG9631 | 1 | 4.05 | 9.99 | 6815 | 7138 | inactive
msi | 1 | 8.34 | – | 3776 | 377 | inactive
Rdh1 | 1 | 9.85 | – | 6667 | 492 | inactive
Cyp6g2 | 1 | 9.18 | 4.67 | 6087 | 5968 | inactive
Cyp6g2 | 2 | 9.71 | 2.69 | 3614 | 558 | inactive
CG4751 | 1 | 18.4 | 7.29 | 6009 | 5998 | inactive
CG30412 | 1 | 11.8 | 26.8 | 6378 | 5511 | inactive
CG30412 | 2 | 2.22 | 1.8 | 6726 | 6279 | inactive

An excerpt from above, limited to “cell count, replicate 2”.
CG17475 #1 = 6795
CG17475 #2 = 4769
Ctl2 #1 = 7035
Ctl2 #2 = 6054
CG3323 = 6504
